test system: HIV-1 strain HTLVIIIB; assay: p24 enzyme immunoassay of HIV replication in HTLVIIIB-infected peripheral blood mononuclear cells; type: cell-based; details: Table 4; ratio of fifty percent cytotoxic concentration to IC50
Description: The HIV-1 strain HTLVIIIB (kindly provided by Dr. Neal T. Wetherall, VIROMED Laboratories, Inc.), was propagated in CCRF-CEM cells, and used in in vitro assays of the anti-HIV-1 activity of the synthesized novel derivatives. Cell-free supernatants of HTLVIIIB-infected CCRF-CEM cells were harvested, dispensed into 1 ml aliquots, and frozen at −70° C.
The incubated cells were then exposed to HIV-1 at a multiplicity of infection (MOI) of 0.1 during a one-hour adsorption period at 37° C. in a humidified 5% CO2 atmosphere. […] Aliquots of culture supernatants were removed from the wells on the 7th day after infection for p24 antigen assays. […] Ag.
The applied p24 enzyme immunoassay (EIA) was the unmodified kinetic assay commercially available from Coulter Corporation/Immunotech, Inc. (Westbrooke, Me.). In the assay, a murine monoclonal antibody against HIV core protein is coated onto microwell strips. Antigen (HIV core protein) present in the test culture supernatant samples binds the antibody and the bound antibody-antigen complex is quantitated. Percent viral inhibition was calculated by comparing the p24 values from the test substance-treated infected cells with p24 values from untreated infected cells (i.e., virus controls).

SMILES	S.I.
Cc1cn([C@H]2C[C@H](N=[N+]=[N-])[C@@H](CO)O2)c(=O)[nH]c1=O [AZT, reference compound]	1250
CSCSc1nc(Cc2ccccc2)c(C)c(=O)[nH]1 [Compound 3a, 5-methyl-2-[(methylthiomethyl)thio]-6-benzyl-pyrimidin-4-1H-one]	>22
CCc1c(Cc2ccccc2)nc(SCSC)[nH]c1=O [Compound 3b, 5-ethyl-2-[(methylthiomethyl)thio]-6-benzyl-pyrimidin-4-1H-one]	>125
CSCSc1nc(Cc2ccccc2)c(C(C)C)c(=O)[nH]1 [Compound 3c, 5-isopropyl-2-[(methylthiomethyl)thio]-benzyl-pyrimidin-4-1H-one]	>100,000

same assay, conditions: Table 5; IC50[MTA]/IC50[p24]

SMILES	S.I.
Cc1cn([C@H]2C[C@H](N=[N+]=[N-])[C@@H](CO)O2)c(=O)[nH]c1=O [AZT, reference compound]	6250
S=C(NCCc1ccccn1)Nc1ccccn1 [Compound I-1, N-[2-(2-pyridylethyl)]-N′-[2-(pyridyl)]-thiourea]	>435
S=C(NCCN1CCCCC1)Nc1ccc(Br)cn1 [Compound I-3, N-[2-(1-piperidinoethyl)]-N′-[2-(5-bromopyridyl)]-thiourea]	>10^5
COc1ccc(OC)c(CCNC(=S)Nc2ccc(Br)cn2)c1 [Compound I-4, N-[2-(2,5-dimethoxyphenylethyl)]-N′-[2-(5-bromopyridyl)]-thiourea]	>10^5
S=C(NCCc1ccccn1)Nc1ccc(Br)cn1 [Trovirdine, reference compound]	>10^4

— patent publication US6925388B1, “Heterocyclic nonnucleoside inhibitors of reverse transcriptase” (Parker Hughes Institute, priority 1998, dated 2005)
